Mutational tolerance of the Zika virus NS2B-NS3 protease

Data from the supplement of Ni et al. 2025, doi:10.1038/s41467-025-63602-z.

Chain scanned (Zika virus MR766; NS2B from position 2 to 131, then the start of NS3):
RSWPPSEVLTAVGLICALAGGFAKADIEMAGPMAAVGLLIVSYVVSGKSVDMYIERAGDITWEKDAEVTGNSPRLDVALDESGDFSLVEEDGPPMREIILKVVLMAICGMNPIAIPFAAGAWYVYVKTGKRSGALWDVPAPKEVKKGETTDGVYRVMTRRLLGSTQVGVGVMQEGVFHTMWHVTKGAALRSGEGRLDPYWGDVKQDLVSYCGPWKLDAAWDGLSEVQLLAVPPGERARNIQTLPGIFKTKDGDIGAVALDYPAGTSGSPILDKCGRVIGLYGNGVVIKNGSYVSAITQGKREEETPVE

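Libraries of single mutants were passaged as virus pools on Huh-7.5 cells. Deep sequencing gave the change in frequency of each mutant relative to wild type, averaged over three replicate libraries (two for positions 207-308). The study looked for pockets that tolerate few changes, as a guide for inhibitor design.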

The number is log2 of the effect relative to wild type; negative values mean reduced growth, higher values better tolerance.
Substitutions are written as wild-type residue, site number, new residue.
This list holds changes to glycine only.
The authors count -1 or higher as tolerated. Position 1 is the last residue of NS2A.
Positions 1-103, 104-206 and 207-308 were made and measured as separate libraries.
Six mutants with high scores were retested singly and none clearly outgrew wild type, so positive values are not proof of better growth.

A258G: -6.75.
L259G: -5.34.
D260G: -5.96.
Y261G: -4.18.
P262G: -5.17.
A263G: -2.05.
T265G: -4.50.
S266G: -5.83.
S268G: -4.22.
P269G: -5.67.
I270G: -5.37.
L271G: -5.38.
D272G: -2.00.
K273G: -2.04.
C274G: -1.01.
R276G: -3.77.
V277G: -5.16.
I278G: -5.48.
L280G: -5.94.
Y281G: -5.61.
N283G: -5.27.
V285G: -5.98.
V286G: -6.48.
I287G: 0.08.
K288G: -0.35.
N289G: -2.99.
S291G: -2.50.
Y292G: -4.62.
V293G: -6.33.
S294G: -4.59.
A295G: -6.51.
I296G: -5.18.
T297G: -5.53.
Q298G: -5.50.
K300G: -6.53.
R301G: -6.41.
E302G: -0.98.
E303G: -3.81.
E304G: -0.22.
T305G: -1.01.
P306G: -2.19.
V307G: -1.48.
E308G: -1.27.